Data published in patent US20260224597A1, “METHODS FOR ACTIVATING IMMUNE CELLS TO KILL BACTERIA” (The Texas A&M University System, priority 2023, published 2026).

Key:
[1] = system: L. monocytogenes; test: Bacterial survival assay: ingested L. monocytogenes in human macrophages; type: cell-based, Listeria monocytogenes; conditions: GM-CSF-generated macrophages, 48 hours of infection, 10 and 1000 nM
[2] = system: Mtb; test: Bacterial survival assay: ingested Mtb in human macrophages; conditions: for number of viable Mtb compared to control: 72 hours of infection, inhibitor re-added at 24 and 48 hours
[3] = system: human macrophages; conditions: 24 hours, 1000 nM
[4] = system: L. pneumophila; test: Bacterial survival assay: ingested L. pneumophila in human macrophages; type: cell-based, Legionella pneumophila; conditions: GM-CSF-generated macrophages, 48 hours of infection, 100 and 1000 nM

Substance: (1R*,2S*)-4-[2-Chloro-6-(methylamino)-9H-purin-9-yl]-2-(phosphonooxy)bicyclo[3.1.0]hexane-1-methanol dihydrogen phosphate ester diammonium salt
- viability of ingested L. monocytogenes compared to control [1]: reduced the viability
- number of ingested Mtb compared to control ([2]; GM-CSF human macrophages, after 4 hours of infection, 1000 nM inhibitor): did not significantly alter
- number of viable Mtb compared to control ([2]; GM-CSF macrophages, 100 nM and higher): reduced the number of viable Mtb
- viability of ingested Mtb compared to control ([2]; GM-CSF-generated human macrophages, 48 hours of infection, concentrations at and above 1 nM): reduced the viability
- number of viable Mtb compared to control ([2]; M-CSF macrophages, 10 nM and higher): reduced the number of viable Mtb
- metabolic activity of macrophages infected with Mtb [3]: did not significantly change
- viability of ingested L. pneumophila compared to control [4]: reduced the viability
